According to patent US12202850B2, “Cyclobutyl purine derivative or salt thereof” (FUJIFILM Corporation, priority 2018, dated 2025):

System: adenovirus type 6 (ADV6)
Assay: Evaluation of anti-adenovirus activity (CRL-11516 cells infected with ADV6, anti-hexon staining)
Assay type: cell-based
Details: read-out: Anti-AdV activity EC50, ADV6 (50TCID50), 48 hours, 50% reduction of dark brown-stained cells

## (cis-3-(2-amino- 6-methoxy-9H- purin-9-yl) cyclobutyl)methyl bis(S-pivaloyl-2- mercaptoethan-1- yl)phosphate
  EC50: 1 to 10 µM

Some compounds may have been tested in ways that are not shown here.
